This is a selection; strong and weak results do not stand in their true shares. Records with an inconclusive call do not appear. The source made the active and inactive calls. Calls come from the whole dose curve; tested in A549 cells.
Potency is the fitted concentration of half-maximal effect.

The nature of the experiment: qHTS for Stage-Specific Inhibitors of Vaccinia Orthopoxvirus: Venus Reporter Primary qHTS. Note: nearly all actives have a fitted effect of over 30% in size. Particulars: Vaccinia virus Venus reporter expression, fluorescence. A general note: Quantitative high-throughput screening tests each substance at several concentrations.
Turning to `CC(=O)O[C@H]1C[C@@H]2OC3C=C(C)CCC3(C)[C@@]1(C)[C@@]21CO1` (some centres not stated), the Potency is active: 1260 nM.

For the compound `CC(O)C1C=CC=CC(=O)OC2CC3OC4C5OC5(C)C(O)CC4(COC(=O)C(O)C(C)CCO1)C2(C)C31CO1` (configuration not stated), the Potency was active: 1000 nM.

`CC1=CC2OC3CC4OC(=O)C=CC=CC(C(C)O)OCC(O)C5(C)OC5C(=O)OCC2(CC1O)C4(C)C31CO1` (configuration not stated): the Potency is active: 316 nM.

Turning to `C[C@H]1[C@@H](OS(=O)(=O)O)C[C@@H]2C[C@H]([C@@H](O)c3cc(=O)[nH]c(=O)[nH]3)NC3=NC[C@H]1N32`, the Potency was active: 3160 nM.

With `CC1=CC2OC3CC4OC(=O)C=CC=CC(=O)OCCC(C)C(O)C(=O)OCC2(CC1)C4(C)C31CO1` (configuration not stated), the Potency was active: 8910 nM.

For `C=C(C=O)CC1CC(O)[C@]2(C)OC3CC4OC5C[C@]6(C)O[C@]7(C)CCC8OC9C[C@]%10(C)OC%11C(C)=CC(=O)OC%11CC%10OC9C[C@@H](C)C8OC7CC6O[C@]5(C)CC5OC5C4OC3CC2O1` (some centres not stated), the Potency is active: 11200 nM.

Consider `CC(O)C1C=CC=CC(=O)OC2CC3OC4C5OC5(C)CCC4(COC(=O)C4OC4(C)C(O)CO1)C2(C)C31CO1` (configuration not stated), for which the Potency was active: 316 nM.

(Values after PubChem BioAssay AID720580 (National Center for Advancing Translational Sciences (NCATS), 2013).)
